Laboratory results as given in PMC12366332 (Applied and Environmental Microbiology, 2025).
HELM strings list residues between dots; [ac] is acetyl, [am] amide, other brackets name non-standard units.

Assay: general procedure: Fmoc solid-phase peptide synthesis; Fmoc-Rink-ChemMatrix resin (0.69 mmol/g) or Fmoc-Rink-MBHA resin (0.56 mmol/g)
Conditions: whole synthesis

Question: For Ac-KK(COC11H23)LFKKILKYL-NH2, which “final HPLC purity” value is on record?
Answer: Its value is greater than 99%.

Question: Which “final HPLC purity” value does the source give for Ac-KKLFKKIK(COC5H11)KYL-NH2 here?
Answer: The value was greater than 99%.

Question: For Ac-KKLFKKILKK(COC3H7)L-NH2, which “final HPLC purity” value is on record?
Answer: The value was greater than 99%.

Question: For Ac-KKLFKKILKK(COC5H11)L-NH2, which “final HPLC purity” value is on record?
Answer: Its value is greater than 99%.

Question: With Ac-KKLfKKILKYK(COC3H7)-NH2 as the substance, how does the “final HPLC purity” value read?
Answer: The value was greater than 99%.

Question: With Ac-LKLFKKILKVL-NH2 as the substance, how does the “final HPLC purity” value read?
Answer: Its value is greater than 99%.

Question: With Ac‐KKLFKKIK(COC3H7)KYL‐NH2 as the substance, how does the “final HPLC purity” value read?
Answer: The value was greater than 99%.

Question: With FKLFKKILKVL-NH2 as the substance, how does the “final HPLC purity” value read?
Answer: The value was greater than 99%.

Question: For KKLFKKILKFL-NH2, which “final HPLC purity” value is on record?
Answer: Its value is greater than 99%.

Question: Which “final HPLC purity” value does the source give for KKLFKKILKKL-NH2 here?
Answer: Its value is greater than 99%.

Question: With KKLFKKILKVL-NH2 as the substance, how does the “final HPLC purity” value read?
Answer: The value was 82%.

Question: Which “final HPLC purity” value does the source give for KKLFKKILKYL-NH2 here?
Answer: The value was greater than 99%.

Question: Which “final HPLC purity” value does the source give for KKLFKkILKYL-NH2 here?
Answer: The value was 80%.

Question: For KKLfKKILKYL-NH2, which “final HPLC purity” value is on record?
Answer: The value was 84%.

Question: For KKlFKKILKYL-NH2, which “final HPLC purity” value is on record?
Answer: Its value is 85%.

Question: Which “final HPLC purity” value does the source give for KkLFKKILKYL-NH2 here?
Answer: The value was greater than 99%.

Question: For “PEPTIDE1{[But].K.K.L.[dF].K.K.I.L.K.Y.L.[am]}$$$$V2.0”, which “final HPLC purity” value is on record?
Answer: Its value is greater than 99%.

Question: For “PEPTIDE1{[ac].K.K.K.[dF].K.K.I.L.K.Y.L.[am]}|PEPTIDE2{[Lau]}$PEPTIDE1,PEPTIDE2,4:R3-1:R2$$$V2.0”, which “final HPLC purity” value is on record?
Answer: Its value is greater than 99%.

Question: With “PEPTIDE1{[ac].K.K.K.[dF].K.K.K.L.K.Y.L.[am]}|PEPTIDE2{[But]}$PEPTIDE1,PEPTIDE2,4:R3-1:R2$$$V2.0” as the substance, how does the “final HPLC purity” value read?
Answer: The value was greater than 99%.

Question: For “PEPTIDE1{[ac].K.K.L.H.K.K.I.L.K.K.L.[am]}|PEPTIDE2{[But]}$PEPTIDE1,PEPTIDE2,11:R3-1:R2$$$V2.0”, which “final HPLC purity” value is on record?
Answer: Its value is greater than 99%.

Question: For “PEPTIDE1{[ac].K.K.L.[D-Lys(But)].K.K.I.L.I.Y.L.[am]}$$$$V2.0”, which “final HPLC purity” value is on record?
Answer: The value was 91%.

Question: With “PEPTIDE1{[ac].K.K.L.[D-Lys(But)].K.K.I.L.K.Y.L.[am]}$$$$V2.0” as the substance, how does the “final HPLC purity” value read?
Answer: The value was greater than 99%.

Question: Which “final HPLC purity” value does the source give for “PEPTIDE1{[ac].K.K.L.[dF].K.K.I.K.K.Y.L.[am]}|PEPTIDE2{[But]}$PEPTIDE1,PEPTIDE2,9:R3-1:R2$$$V2.0” here?
Answer: The value was greater than 99%.

Question: For “PEPTIDE1{[ac].K.K.L.[dF].K.K.I.K.K.Y.L.[am]}|PEPTIDE2{[Lau]}$PEPTIDE1,PEPTIDE2,9:R3-1:R2$$$V2.0”, which “final HPLC purity” value is on record?
Answer: The value was greater than 99%.

Question: Which “final HPLC purity” value does the source give for “PEPTIDE1{[ac].K.K.L.[dF].K.K.I.L.K.K.L.[am]}|PEPTIDE2{[But]}$PEPTIDE1,PEPTIDE2,11:R3-1:R2$$$V2.0” here?
Answer: The value was greater than 99%.

Question: For “PEPTIDE1{[ac].K.K.L.[dF].K.K.I.L.K.Y.K.[am]}|PEPTIDE2{[Hex]}$PEPTIDE1,PEPTIDE2,12:R3-1:R2$$$V2.0”, which “final HPLC purity” value is on record?
Answer: Its value is greater than 99%.

Question: For “PEPTIDE1{[ac].K.K.L.[dF].K.K.I.L.K.Y.L.[am]}|PEPTIDE2{[But]}$PEPTIDE1,PEPTIDE2,2:R3-1:R2$$$V2.0”, which “final HPLC purity” value is on record?
Answer: Its value is greater than 99%.

Question: With “PEPTIDE1{[ac].K.K.L.[dF].K.K.I.L.K.Y.L.[am]}|PEPTIDE2{[But]}$PEPTIDE1,PEPTIDE2,6:R3-1:R2$$$V2.0” as the substance, how does the “final HPLC purity” value read?
Answer: Its value is greater than 99%.

Question: With “PEPTIDE1{[ac].K.K.L.[dF].K.K.I.L.K.Y.L.[am]}|PEPTIDE2{[But]}$PEPTIDE1,PEPTIDE2,7:R3-1:R2$$$V2.0” as the substance, how does the “final HPLC purity” value read?
Answer: Its value is greater than 99%.

Question: Which “final HPLC purity” value does the source give for “PEPTIDE1{[ac].K.K.L.[dF].K.K.I.L.K.Y.L.[am]}|PEPTIDE2{[But]}$PEPTIDE1,PEPTIDE2,10:R3-1:R2$$$V2.0” here?
Answer: The value was greater than 99%.

Question: With “PEPTIDE1{[ac].K.K.L.[dF].K.K.K.L.K.Y.L.[am]}|PEPTIDE2{[Hex]}$PEPTIDE1,PEPTIDE2,8:R3-1:R2$$$V2.0” as the substance, how does the “final HPLC purity” value read?
Answer: Its value is greater than 99%.

Question: For “PEPTIDE1{[ac].K.K.L.[dF].K.K.[Lys(But)].L.K.Y.L.[am]}$$$$V2.0”, which “final HPLC purity” value is on record?
Answer: The value was greater than 99%.

Question: With “PEPTIDE1{[ac].K.K.[Lys(But)].[dF].K.K.I.L.K.Y.L.[am]}$$$$V2.0” as the substance, how does the “final HPLC purity” value read?
Answer: The value was greater than 99%.

Question: With cyclo(LLKKKWKKLQ) as the substance, how does the “final HPLC purity” value read?
Answer: The value was greater than 99%.
